# Article PMC7840908 (Communications Biology, 2021)
# Experiments:
# [1] = target: MERS-CoV macro domain (Middle East respiratory syndrome-related coronavirus, UniProt K9N638); assay: Isothermal titration calorimetry (ITC), WT protein; assay type: binding
# [2] = target: T1, MERS-CoV macro domain G45V (Middle East respiratory syndrome-related coronavirus, UniProt K9N638, G1154V); settings: 308 K
# [3] = target: T2, MERS-CoV macro domain I129F (Middle East respiratory syndrome-related coronavirus, UniProt K9N638, I1238F); settings: 308 K
# [4] = target: T1, MERS-CoV macro domain G45V; settings: G45V compared with WT
# [5] = target: T2, MERS-CoV macro domain I129F
SMILES,Kd ([1]; 298 K) [µM],ΔG ([1]; 298 K) [kJ/mol],"ΔG ([1]; 308 K, WT) [kJ/mol]",n (stoichiometry of binding) [2],ΔG [2] [kJ/mol],ΔH [2] [kJ/mol],−TΔS [2] [kJ/mol],Heat difference detected by ITC during titration [3],"Tm differences with various amounts of NAD, DSF [4]","Tm differences with various amounts of NAD, DSF [5]"
"Nc1ncnc2c1ncn2[C@@H]1O[C@H](COP(=O)(O)OP(=O)(O)O)[C@@H](O)[C@H]1O [ADP, adenosine diphosphate]",70.3,-23.88 ± 1.23,,,,,,,,
"Nc1ncnc2c1ncn2C1OC(COP(=O)(O)O)C(O)C1O (stereo not drawn) [AMP, adenosine monophosphate]",191,-21.31 ± 0.81,,,,,,,,
"NC(=O)c1ccc[n+]([C@@H]2O[C@H](COP(=O)([O-])OP(=O)(O)OC[C@H]3O[C@@H](n4cnc5c(N)ncnc54)[C@H](O)[C@@H]3O)[C@@H](O)[C@H]2O)c1 [NAD, nicotinamide adenine dinucleotide]",,,-25.32 ± 0.13,1.31 ± 0.10,-22.70 ± 0.71,-76.05 ± 41.49,53.35 ± 41.50,no significant heat difference detected,fewer Tm differences,no Tm changes
